# From PubChem BioAssay AID624379 (The Scripps Research Institute Molecular Screening Center, 2012)
# The entries are a selection whose mix differs from that of the whole data set. Active and inactive are the calls of the source.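 How the source made its calls: active means mean inhibition above a cutoff equal to the average over all tested compounds plus one standard deviation (cut at about 70% in these data); inactive means the rest.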
# Experiment: nonselective effects on VP16 transactivation – cell-based, luminescence, CHO-S, high throughput, counter-screen for NR2E3 agonist project, confirmation (AID 624379);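 further: luciferase from a UAS reporter driven by GAL4-VP16 transactivation; 0% = DMSO with VP16-transfected cells and 100% = DMSO with cells lacking VP16; higher means less reporter light so more repression of VP16 activity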
# Conditions: CHO-S GAL4-VP16 luciferase reporter, at 3.98 µM, stronger effect = higher value
row,Structure (SMILES),inhibition
1,CCCCn1nnnc1C(c1ccccc1OC(F)(F)F)N1CCC(n2c(=O)[nH]c3ccccc32)CC1 (stereo unspecified),inactive: 3.7%
